These are literature values, as cited in paper PMC11599114 (Viruses, 2024).

In data set [1] the test system is SARS-CoV-2. Details: method as in ref 35216177. The note with it: SARS-CoV-2, Vero.
For data set [2], the system named is influenza virus(H1N1,VR-1894). Details: method as in ref 35216177. To be noted: H1N1 VR-1894, MDKC.
Data set [3] concerns A/Parma/24/09 H1N1. Details: method as in 2 sources. The note with it: A/Parma/24/09 H1N1, MDCK.
The test system of data set [4] is A/Parma0/5/06 H3N2. On the set-up: method as in 2 sources. The note with it: A/Parma0/5/06 H3N2, MDCK.
Data set [5] deals with A/Roma-ISS/02/08 H1N1. Details: method as in 2 sources. To be noted: A/Roma-ISS/02/08 H1N1, MDCK.

Take CFVPWFSKFlXRIL [DRAVPe00391]: the IC50 in data set [1] was 760 nM; in data set [2], 2550 nM.

As to CGGFVPWFSKFlXRIL [DRAVPe00392], the results for the concentration for half-maximal inhibition (IC50) in data set [1] and in data set [2] were 1020 nM and 6020 nM, respectively.

As for FVPWFSKFlGRIL [DRAVPe00377], in data set [1], the 50% inhibitory concentration (IC50) is 4620 nM.

FVPWFSKFlKRIL [DRAVPe00383]: the 50% inhibitory concentration (IC50) in data set [1] is 880 nM.

As to FVPWFSKFlPRIL [DRAVPe00378], in data set [1], the 50% inhibitory concentration (IC50) is 4820 nM.

Consider FVPWFSKFlWRIL [DRAVPe00385], for which the IC50 in data set [1] was 880 nM.

Regarding FVPWFSKFlXRIL [DRAVPe00380], the IC50 in data set [1] was 6720 nM.

As to FVPWFSKFlXRILC [DRAVPe00389], the half-maximal inhibitory concentration (IC50) in data set [1] was 3180 nM; in data set [2] it was 5550 nM.

As for FVPWFSKFlXRILGGC [DRAVPe00390], the 50% inhibitory concentration (IC50) in data set [1] is 12100 nM; in data set [2], 21100 nM.

As to FVPWFSKFlkRIL [DRAVPe00384], the half-maximal inhibitory concentration (IC50) in data set [1] is 4630 nM.

In the case of FVPWFSKFlpRIL [DRAVPe00379], in data set [1], the IC50 is above 50000 nM and the IC90 is above 50000 nM.

For FVPWFSKFlwRIL [DRAVPe00386], the concentration for half-maximal inhibition (IC50) in data set [1] is 4070 nM.

Take FVPWFSKFlxRIL [DRAVPe00382]: the 50% inhibitory concentration (IC50) in data set [1] was 1000 nM.

For KSETKN [DRAVPe01646], the concentration for a half-maximal effect (EC50) in data set [3] was 500 ± 0.46 nM; in data set [4], 400 ± 210 nM; in data set [5], 0.5 ± 0.01 nM.

Turning to SKHS [DRAVPe01651], the EC50 is 0.005 ± 2e-05 nM in data set [4] and 0.003 ± 0.00061 nM in data set [5].

SKHSSLDC [DRAVPe01649]: the EC50 is 0.005 ± 0.00045 nM in data set [4] and 0.08 ± 0.00019 nM in data set [5].

On to SLDC [DRAVPe01650], for which the EC50 in data set [3] was 0.0046 ± 5e-05 nM; in data set [4] it was 0.0043 ± 3e-05 nM.

Consider SLDCVLRP [DRAVPe01647], for which the half-maximal effective concentration (EC50) in data set [3] was 0.0025 ± 0.00037 nM; in data set [4], 0.3 ± 0.0002 nM.

Turning to VLRP [DRAVPe01648], the EC50 in data set [3] was 0.001 ± 5e-05 nM; in data set [4] it was 0.25 ± 0.00042 nM.

Broadly, the IC50 is the concentration that gives 50% inhibition. What is called IC90 is the concentration at which the effect reaches the 90% level. The EC50 is the concentration needed to bring the measured effect to its halfway point.
